Pooled drug test results. Numbers come from NIAID ChemDB, via PubChem.

All rows: tests in culture; agent: Rhinovirus; measure: inhibition

Blank or dashed fields: not listed here. Lines come from different laboratories, so protocols vary. Inhibition is in % at the dose shown (toxicity tests: loss of growth or viability).

compound | dose | strain | cells | method | result
Cc1ccccc1Cn1cnc2c(N(C)C)nc(C(F)(F)F)nc21 | 8 µM | Serotype 19 | M-HELA | plaque count | 19%
Cc1ccc(C(=O)Nc2ccc(S(=O)(=O)O)c3cc(S(=O)(=O)O)cc(S(=O)(=O)O)c23)cc1NC(=O)c1cccc(NC(=O)Nc2cccc(C(=O)Nc3cc(C(=O)Nc4ccc(S(=O)(=O)O)c5cc(S(=O)(=O)O)cc(S(=O)(=O)O)c45)ccc3C)c2)c1 | 50 µg/mL | - | Human embryonic lung cells | cytopathic effect | 100%
CN(C)c1nc(C(F)(F)F)nc2c1ncn2Cc1ccc(S(C)(=O)=O)cc1 | 8 µM | Serotype 14 | M-HELA | plaque count | 16%
O=S(=O)([O-])c1cc(S(=O)(=O)[O-])c2cc(NS(=O)(=O)c3ccccc3)ccc2c1 | 50 µg/mL | - | Human amnion AV3 cells | cytopathic effect | 0%
N#Cc1cc([N+](=O)[O-])ccc1Oc1ccc(Cl)c(Cl)c1 | 12.5 µg/mL | TYPE 1A | VERO | - | 87%
O=S(=O)([O-])c1ccc2c(NS(=O)(=O)c3ccccc3)cc(S(=O)(=O)[O-])cc2c1 | 50 µg/mL | - | Human embryonic lung cells | cytopathic effect | 33%
FC(F)(F)c1cccc(C2CCN(c3ccc(Br)nn3)C2)c1 | 5.6 µg/mL | 100 serotypes | - | - | 71%
CC(C)Oc1ccc(Cn2cnc3c(N(C)C)nc(C(F)(F)F)nc32)cc1 | 8 µM | Serotype 19 | M-HELA | plaque count | 33%
Nc1ccc2cc(S(=O)(=O)O)cc(S(=O)(=O)O)c2c1 | 10 µg/mL | - | Human amnion AV3 cells | cytopathic effect | 0%
Cc1ccc(Cn2cnc3c(N(C)C)nc(C(F)(F)F)nc32)cc1C | 8 µM | Serotype 21 | M-HELA | plaque count | 16%
CCOC(=O)c1csc(N2CCN(Cc3cc(C)ccc3C)CC2)n1 | 0.125 µg/mL | 17 serotypes | - | - | 18%
O=S(=O)(O)c1ccc2cc(O)c(S(=O)(=O)O)cc2c1 | 5 µg/mL | - | Human amnion AV3 cells | cytopathic effect | 0%
CCOc1cc(O)c(C(=O)/C=C/c2ccc(OC)cc2)c(OC)c1 | 0.145 µg/mL | 100 serotypes | - | - | 53%
Nc1ccc2c(O)cc(S(=O)(=O)[O-])cc2c1S(=O)(=O)[O-] | 10 µg/mL | - | Human amnion AV3 cells | cytopathic effect | 14%
FC(F)(F)c1cccc(C2CCN(c3ccc(Cl)nn3)C2)c1 | 0.005 µg/mL | 17 serotypes | - | - | 18%
CN(C)c1nc(C(F)(F)F)nc2c1ncn2Cc1ccccc1 | 8 µM | Serotype 2 | M-HELA | plaque count | 33%
Cc1cccc(C2=CCN(c3ccc(Cl)nn3)CC2)c1 | 0.016 µg/mL | 100 serotypes | - | - | 18%
Cc1cc(Cn2cnc3c(N(C)C)nc(C(F)(F)F)nc32)ccc1Cl | 8 µM | Serotype 13 | M-HELA | plaque count | 13%

Repeating the first 3 entries:

compound	dose	strain	cells	method	result
Cc1ccccc1Cn1cnc2c(N(C)C)nc(C(F)(F)F)nc21	8 µM	Serotype 19	M-HELA	plaque count	19%
Cc1ccc(C(=O)Nc2ccc(S(=O)(=O)O)c3cc(S(=O)(=O)O)cc(S(=O)(=O)O)c23)cc1NC(=O)c1cccc(NC(=O)Nc2cccc(C(=O)Nc3cc(C(=O)Nc4ccc(S(=O)(=O)O)c5cc(S(=O)(=O)O)cc(S(=O)(=O)O)c45)ccc3C)c2)c1	50 µg/mL	-	Human embryonic lung cells	cytopathic effect	100%
CN(C)c1nc(C(F)(F)F)nc2c1ncn2Cc1ccc(S(C)(=O)=O)cc1	8 µM	Serotype 14	M-HELA	plaque count	16%